Experiments:
[1] = system: alpha coronavirus 229E (HCoV-229E); experiment: inhibition of virus-induced CPE, CoV229E in MRC-5 cells (XTT); assay type: cell-based
Protocol: The antiviral compound Remdesivir served as positive control.
Lefamulin (as acetate) was evaluated using different treatment conditions of 4 h, 1 h or 0 h incubation prior to virus addition and addition 1 h after infection For this particular set of experiments, coronavirus was diluted 1:200 in assay medium and added at 100 μL/well to achieve approximately 90% cell killing in the untreated virus control wells (MOI of 0.001).

[2] = system: Zika virus (strain ZIKVPRVABC59); experiment: inhibition of virus-induced CPE, Zika virus in Huh7 cells; assay type: cell-based; conditions: Example 13
Protocol: The Zika virus strain PRVABC59 obtained from ATCC (catalog VR-1843) […] was grown in Rhesus monkey kidney cells for the production of stock virus pools.
Cell viability determination as well as EC50 and TC50 calculations were performed as described in Examples 6 and 8.

[3] = Example 6, ratio of EC50 and TC50

C=C[C@]1(C)C[C@@H](OC(=O)CSCCN(CC)CC)[C@]2(C)[C@H](C)CC[C@]3(CCC(=O)[C@H]32)[C@@H](C)[C@@H]1O [Tiamulin, reference compound]
Therapeutic Index [1, 3]: 2.58

C=C[C@]1(C)C[C@@H](OC(=O)CS[C@@H]2CC[C@@H](N)C[C@H]2O)[C@]2(C)C(C)CC[C@]3(CCC(=O)[C@H]32)[C@@H](C)[C@@H]1O (stereo partly drawn) [Lefamulin, 14-O-{[(1R, 2R, 4R)-4-amino-2-hydroxy-cyclohexylsulfanyl]-acetyl}-mutilin]
Therapeutic Index [1, 3]: 14.3
Therapeutic Index ([1]; Example 7, 0 h pretreatment): >16.2
Therapeutic Index ([1]; Example 7, 1 h post-infection): >3.31
Therapeutic Index ([1]; Example 7, 1 h pretreatment): >23.1
Therapeutic Index ([1]; Example 7, 4 h pretreatment): >22.9
Therapeutic Index [2]: 8.42

CC(C)OC(=O)[C@H](C)N[P@](=O)(OC[C@H]1O[C@@H](n2ccc(=O)[nH]c2=O)[C@](C)(F)[C@@H]1O)Oc1ccccc1 [Sofosbuvir, reference compound]
Therapeutic Index [2]: >15.4
